Source: paper PMC7019903 (Viruses, 2020)

Test system: Hantaan (HTNV) (strain 76–118)
Format: cell-based, Hantaan virus

SMILES	fold more potent than RBV (HTNV EC50)	fold more potent than ETAR (HTNV EC50) [fold]	fold more potent than Favipiravir (HTNV EC50) [fold]
COc1cc(C(=O)Nc2ccc(-n3nc4cc(Cl)c(Cl)cc4n3)cc2)cc(OC)c1OC [2j]	ten-fold		
CCCNC(=O)Nc1ccc(-n2nc3cc(Cl)c(Cl)cc3n2)cc1 [2l]	ten-fold		
O=C(Nc1ccc(-n2nc3cc(Cl)c(Cl)cc3n2)cc1)NC1CCCCC1 [2n]	ten-fold	2	37
